## Potato spindle tuber viroid, stem 15: variant abundance in plants

PSTVd intermediate strain, stem 15: wild type CUGGAGCGAUCGCUUCGG, pool pattern CUGGAGCGAUNGNNUNNG; upper and lower strand joined, each 5' to 3', the first 9 letters being the upper strand.

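A pool of all variants was put on leaves of three Nicotiana benthamiana plants. Samples came from the inoculated region at 5 days, the leaf margin at 10 and upper systemic leaves at 12.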

Numbers give reads per thousand; 0 = not seen among the reads, higher = more abundant.
Each value is the mean of three plants.
"Pool" is the share in the plasmid pool used as inoculum, on the same scale.
The inoculated region was read from the minus strand, the other sites from the plus strand.
The authors trace changes outside the varied positions to PCR and sequencing errors or to mutation in the plant; presence does not show that a variant is infectious alone.

For CUGGAGCGAUGGAUUGUG (pool 0.743) the result was inoculated region 0.196; leaf margin 0.0106; systemic leaves 0.
For CUGGAGCGAUGGGGUUCG (pool 0.986) the result was inoculated region 0.323; leaf margin 0.0244; systemic leaves 0.
For CUGGAGCGAUUGAUUGAG (pool 1.33) the result was inoculated region 1.14; leaf margin 0.0485; systemic leaves 0.0133.
For CUGUAGCGAUAGUGUAUG (pool 0.0162) the result was inoculated region 0; leaf margin 0; systemic leaves 0.
For CUGGAGCGAUCGGGUGCG (pool 1.18) the result was inoculated region 0.406; leaf margin 0.0563; systemic leaves 0.
For AUGGAGCGAUAGUUUGGG (pool 0.0162) the result was inoculated region 0; leaf margin 0; systemic leaves 0.
For CUGGAGCGAUGGUUUGUG (pool 0.857) the result was inoculated region 0.270; leaf margin 0.0235; systemic leaves 0.
For CUGGAGCGAUCGGUUCUG (pool 1.39) the result was inoculated region 0.726; leaf margin 0.0419; systemic leaves 0.
For CUGGAGCGAUAGUAUUAG (pool 0.921) the result was inoculated region 1.46; leaf margin 0.479; systemic leaves 0.317.
For CUGUAGCGAUUGGGUUUG (pool 0.0162) the result was inoculated region 0; leaf margin 0; systemic leaves 0.
For CUGGAGCGAUCGGAUCAG (pool 0.727) the result was inoculated region 0.273; leaf margin 0.0350; systemic leaves 0.
For CUGGAGCGAUUGUGUCGG (pool 0.873) the result was inoculated region 0.289; leaf margin 0.0341; systemic leaves 0.
For CUGGAGCGAUCGUAUUAG (pool 0.889) the result was inoculated region 1.59; leaf margin 0.571; systemic leaves 0.
For CUGGAGCGAUCGCUUGGG (pool 0.954) the result was inoculated region 0.416; leaf margin 0.105; systemic leaves 0.108.
For CUGUAGCGAUCGCAUCGG (pool 0.0162) the result was inoculated region 0; leaf margin 0; systemic leaves 0.
For CUGGAGCGAUUGCUUACG (pool 0.840) the result was inoculated region 0.308; leaf margin 0.0776; systemic leaves 0.
For CUGGAGCGAUGGGCUAUG (pool 0.776) the result was inoculated region 0.299; leaf margin 0.0472; systemic leaves 0.
For CUGGAGCGAUCGUGUGCG (pool 0.921) the result was inoculated region 0.241; leaf margin 0.0334; systemic leaves 0.
For CUGGAGCGAUAGAGUGAG (pool 0.679) the result was inoculated region 0.281; leaf margin 0.0578; systemic leaves 0.
For CUGGAGCGAUUGGAUCUG (pool 1.66) the result was inoculated region 0.994; leaf margin 0.0707; systemic leaves 0.
For CUGGAGCGAUAGCUUUAG (pool 0.840) the result was inoculated region 0.278; leaf margin 0.0381; systemic leaves 0.
For CUGGAGCGAUAGCCUUUG (pool 0.776) the result was inoculated region 0.375; leaf margin 0.0733; systemic leaves 0.
For CUGGAGUGAUUGUAUAGG (pool 0.0162) the result was inoculated region 0; leaf margin 0; systemic leaves 0.
For CUGGAGCGAUAGAUUUGG (pool 0.905) the result was inoculated region 0.207; leaf margin 0.0197; systemic leaves 0.
For CUGGAGCGAUAGCGUGUG (pool 0.921) the result was inoculated region 0.283; leaf margin 0.0287; systemic leaves 0.
For CUGGAGCGAUUGAGUCUG (pool 0.695) the result was inoculated region 0.182; leaf margin 0.00908; systemic leaves 0.
For CUGGAGCGAUAGACUUAG (pool 0.889) the result was inoculated region 1.46; leaf margin 0.459; systemic leaves 0.
For CUGGAGCGAUCGACUACG (pool 0.986) the result was inoculated region 0.320; leaf margin 0; systemic leaves 0.
For CUGGAGCGAUUGCUUUCG (pool 0.937) the result was inoculated region 0.389; leaf margin 0.0334; systemic leaves 0.
For CUGGAGCGAUGGUUUAAG (pool 0.840) the result was inoculated region 0.267; leaf margin 0.0466; systemic leaves 0.
For CUGGAGCGAUUGACUGAG (pool 0.905) the result was inoculated region 1.61; leaf margin 0.604; systemic leaves 0.
For CUGGAGCGAUCGACUCUG (pool 0.776) the result was inoculated region 0.306; leaf margin 0.0334; systemic leaves 0.
For CUGGAGCGAUGGGAUGGG (pool 0.646) the result was inoculated region 0.285; leaf margin 0.0626; systemic leaves 0.
For CUGGAGCGAUUGUCUCUG (pool 0.614) the result was inoculated region 1.28; leaf margin 0.0381; systemic leaves 0.00664.
For CUGGAGCGAUCGGCUCGG (pool 1.02) the result was inoculated region 0.253; leaf margin 0.0244; systemic leaves 0.
For CUGGAGCGAUCGCGUUAG (pool 0.921) the result was inoculated region 0.250; leaf margin 0.0244; systemic leaves 0.
For CUGGAGCGAUCGAGUCAG (pool 0.824) the result was inoculated region 0.287; leaf margin 0.0685; systemic leaves 0.

Extract of 3 entries:

sequence,pool,inoculated region,leaf margin,systemic leaves
CUGGAGCGAUAGCGUGUG,0.921,0.283,0.0287,0
CUGUAGCGAUCGCAUCGG,0.0162,0,0,0
CUGUAGCGAUAGUGUAUG,0.0162,0,0,0

For reference, wild type rose from 10.2 per thousand in the pool to 285, 367, 312 (inoculated region), 785, 865, 782 (leaf margin) and 854, 898, 915 (systemic leaves).
Samples held 36,693 to 63,082 reads, so the smallest values rest on one or two reads.

Source: Wu et al. 2024 (doi:10.1371/journal.ppat.1012142), supplementary data.